The subject of experiment [1] is Pyricularia oryzae. Briefly: Antifungal activity against MBI-D-resistant Magnaporthe oryzae SW (OYU-1) with Val75Met SDH mutant in rice seedlings assessed as preventive value of rice blast at 5 ug/ml foliar spray at 26 degC by pot test.
Experiment [2] deals with Pyricularia oryzae. Briefly: Antifungal activity against MBI-D-resistant Magnaporthe oryzae SW (OYU-1) with Val75Met SDH mutant in rice seedlings assessed as preventive value of rice blast at 5 ug/ml systemic application at 22 to 30 degC by pot test.

Where only a bound is given, the exact number is not on record here.

Consider `CCC1(C(=O)NC(C)c2cc(Cl)cs2)C(C)C1(Cl)Cl` (configuration not stated), for which the Activity is less than 40% in the experiment with Pyricularia oryzae [1] and “<=40%” in the experiment with Pyricularia oryzae [2]. As for `CCC1(C(=O)NCCc2ccc(Cl)s2)C(C)C1(Cl)Cl` (configuration not stated), the Activity in the experiment on Pyricularia oryzae [2] was 65%. With `CCC1(C(=O)NCCc2ccc(Br)cc2)C(C)C1(Cl)Cl` (configuration not stated), the Activity in the experiment with Pyricularia oryzae [1] was determined as 40%. With `CCC1(C(=O)NCCc2cc(Cl)sc2Cl)C(C)C1(Cl)Cl` (configuration not stated), the Activity is 65% in the experiment with Pyricularia oryzae [1] and “<=40%” with Pyricularia oryzae [2].

Regarding `CC(C)(C)C(Cl)C(=O)NCCc1csc(Cl)c1` (configuration not stated), the Activity entry in the experiment on Pyricularia oryzae [1] and with Pyricularia oryzae [2] was “<=40%” in each case. Turning to `CCC1(C(=O)NC(C)C2CCCC2)C(C)C1(Cl)Cl` (configuration not stated), the Activity entry in the experiment with Pyricularia oryzae [1] is given as “<=40%”.

On to `CCC1(C(=O)NCCc2cccc(Cl)c2)C(C)C1(Cl)Cl` (configuration not stated), for which the Activity entry in the experiment on Pyricularia oryzae [1] was “<=40%”. In the case of `CCC1(C(=O)NCc2ccc(Cl)cc2)C(C)C1(Cl)Cl` (configuration not stated), the Activity is less than 40% in the experiment on Pyricularia oryzae [1] and “<=40%” in the experiment with Pyricularia oryzae [2]. In the case of `CCC1(C(=O)NCCc2cc(Cl)c(Cl)s2)C(C)C1(Cl)Cl` (configuration not stated), the Activity result with Pyricularia oryzae [2] was “<=40%”. Turning to `CCC1(C(=O)NCCc2ccc(C(F)(F)F)cc2)C(C)C1(Cl)Cl` (configuration not stated), the Activity in the experiment on Pyricularia oryzae [2] stood at 65%. For `CC1C(Cl)(Cl)C1(C)C(=O)NCCc1csc(Cl)c1` (configuration not stated), the Activity with Pyricularia oryzae [1] and in the experiment on Pyricularia oryzae [2] was less than 40% each time.

For the compound `CCC1(C(=O)NCCCc2ccc(Cl)cc2)C(C)C1(Cl)Cl` (configuration not stated), the Activity is less than 40% in the experiment on Pyricularia oryzae [1] and “<=40%” with Pyricularia oryzae [2]. As for `CCC1(C(=O)NCC(C)c2ccc(Cl)cc2)C(C)C1(Cl)Cl` (configuration not stated), the Activity result in the experiment on Pyricularia oryzae [2] is “<=40%”. Take `CCC1(C(=O)NCCc2cc(Cl)cs2)C(C)C1(Cl)Cl` (configuration not stated): the Activity in the experiment on Pyricularia oryzae [1] and in the experiment with Pyricularia oryzae [2] was 65% in each case. Regarding `CCC1(C(=O)NC(C)c2ccc(Cl)s2)C(C)C1(Cl)Cl` (configuration not stated), the Activity with Pyricularia oryzae [1] and in the experiment with Pyricularia oryzae [2] was less than 40% in each case. As for `CCC1(C(=O)NC(C)Cc2ccc(Cl)cc2)C(C)C1(Cl)Cl` (configuration not stated), the Activity result in the experiment on Pyricularia oryzae [2] is given as “<=40%”. Take `CCC1(C(=O)NC(C)c2csc(Cl)c2)C(C)C1(Cl)Cl` (configuration not stated): the results for the Activity in the experiment with Pyricularia oryzae [1] and in the experiment on Pyricularia oryzae [2] were less than 40% and “<=40%”, respectively. Take `CCC1(C(=O)NC(C)c2cc(Cl)c(Cl)s2)C(C)C1(Cl)Cl` (configuration not stated): the Activity in the experiment on Pyricularia oryzae [1] was less than 40%; in the experiment with Pyricularia oryzae [2], “<=40%”. In the case of `CC[C@@]1(C(=O)N[C@H](C)c2ccc(Cl)cc2)[C@@H](C)C1(Cl)Cl` (mixture of isomers) [CARPROPAMIDE], the Activity in the experiment on Pyricularia oryzae [1] and in the experiment with Pyricularia oryzae [2] was 40% in each case.

On to `CCC1(C(=O)NCCc2ccsc2)C(C)C1(Cl)Cl` (configuration not stated), for which the Activity in the experiment on Pyricularia oryzae [1] and with Pyricularia oryzae [2] was less than 40% in each case.

Source of the values: ChEMBL document CHEMBL3046506 (2006).
